# Where two headings read alike, the source gives them in different places.
# Legend:
# hemolysis = conditions: as amphotericin B; result of reference CN 1596129 A example 3; cited from earlier work
# [1] = female rats
# [2] = i.v. 5 mg/kg (amphotericin B equivalent), 1 d
# [3] = i.v. 5 mg/kg (amphotericin B equivalent), 2 d
# [4] = i.v. 5 mg/kg (amphotericin B equivalent), 3 d
# [5] = i.v. 5 mg/kg (amphotericin B equivalent), 4 d
# [6] = i.v. 5 mg/kg (amphotericin B equivalent), 5 d
# [7] = i.v. 5 mg/kg (amphotericin B equivalent), 6 d
# [8] = i.v. 5 mg/kg (amphotericin B equivalent), 7 d
# [9] = i.v. 5 mg/kg (amphotericin B equivalent), 8 d
# [10] = i.v. 10 mg/kg (amphotericin B equivalent), 1 d
# [11] = i.v. 10 mg/kg (amphotericin B equivalent), 2 d
# [12] = i.v. 10 mg/kg (amphotericin B equivalent), 3 d
# [13] = i.v. 10 mg/kg (amphotericin B equivalent), 4 d
# [14] = i.v. 10 mg/kg (amphotericin B equivalent), 5 d
# [15] = i.v. 10 mg/kg (amphotericin B equivalent), 6 d
# [16] = i.v. 10 mg/kg (amphotericin B equivalent), 7 d
# [17] = i.v. 10 mg/kg (amphotericin B equivalent), 8 d
# [18] = i.v. 15 mg/kg (amphotericin B equivalent), 1 d
# [19] = i.v. 15 mg/kg (amphotericin B equivalent), 2 d
# [20] = i.v. 15 mg/kg (amphotericin B equivalent), 3 d
# [21] = i.v. 15 mg/kg (amphotericin B equivalent), 4 d
# [22] = i.v. 15 mg/kg (amphotericin B equivalent), 5 d
# [23] = i.v. 15 mg/kg (amphotericin B equivalent), 6 d
# [24] = i.v. 15 mg/kg (amphotericin B equivalent), 7 d
# [25] = i.v. 15 mg/kg (amphotericin B equivalent), 8 d
# [26] = i.v. 18 mg/kg (amphotericin B equivalent), 1 d
# [27] = i.v. 18 mg/kg (amphotericin B equivalent), 2 d
# [28] = i.v. 30 mg/kg (amphotericin B equivalent), 1 d
substance,measurement,setting,value
amphotericin B-hydroxyethyl starch polyconjugate [Preparation 22],concentration at which hemolysis began,hemolysis,400 µg/mL
poly-aspartic acid-amphotericin B polyconjugate [Preparation 1],Body weight,[1]; [2],144.0 g
same,percentage weight increment compared to Day 0,[1]; [2],(−7.4%)
same,Body weight,[1]; [3],146.0 g
same,percentage weight increment compared to Day 0,[1]; [3],(−6.1%)
same,Body weight,[1]; [4],143.2 g
same,percentage weight increment compared to Day 0,[1]; [4],(−7.9%)
same,Body weight,[1]; [5],140.2 g
same,percentage weight increment compared to Day 0,[1]; [5],(−9.8%)
same,Body weight,[1]; [6],140.5 g
same,percentage weight increment compared to Day 0,[1]; [6],(−9.7%)
same,Body weight,[1]; [7],143.0 g
same,percentage weight increment compared to Day 0,[1]; [7],(−8.0%)
same,Body weight,[1]; [8],149.0 g
same,percentage weight increment compared to Day 0,[1]; [8],(−4.2%)
same,Body weight,[1]; [9],151.5 g
same,percentage weight increment compared to Day 0,[1]; [9],(−2.6%)
same,Body weight,[1]; [10],110.1 g
same,percentage weight increment compared to Day 0,[1]; [10],(−12.1%)
same,Body weight,[1]; [11],114.0 g
same,percentage weight increment compared to Day 0,[1]; [11],(−9.0%)
same,Body weight,[1]; [12],109.0 g
same,percentage weight increment compared to Day 0,[1]; [12],(−13.0%)
same,Body weight,[1]; [13],109.4 g
same,percentage weight increment compared to Day 0,[1]; [13],(−12.7%)
same,Body weight,[1]; [14],116.8 g
same,percentage weight increment compared to Day 0,[1]; [14],(−6.8%)
same,Body weight,[1]; [15],124.5 g
same,percentage weight increment compared to Day 0,[1]; [15],(−0.6%)
same,Body weight,[1]; [16],131.5 g
same,percentage weight increment compared to Day 0,[1]; [16],(+5.0%)
same,Body weight,[1]; [17],133.6 g
same,percentage weight increment compared to Day 0,[1]; [17],(+6.6%)
same,Body weight,[1]; [18],129.4 g
same,percentage weight increment compared to Day 0,[1]; [18],(−11.0%)
same,Body weight,[1]; [19],134.3 g
same,percentage weight increment compared to Day 0,[1]; [19],(−7.6%)
same,Body weight,[1]; [20],130.5 g
same,percentage weight increment compared to Day 0,[1]; [20],(−10.3%)
same,Body weight,[1]; [21],125.1 g
same,percentage weight increment compared to Day 0,[1]; [21],(−14.0%)
same,Body weight,[1]; [22],129.3 g
same,percentage weight increment compared to Day 0,[1]; [22],(−11.1%)
same,Body weight,[1]; [23],136.6 g
same,percentage weight increment compared to Day 0,[1]; [23],(−6.1%)
same,Body weight,[1]; [24],145.5 g
same,percentage weight increment compared to Day 0,[1]; [24],(+0.1%)
same,Body weight,[1]; [25],148.3 g
same,percentage weight increment compared to Day 0,[1]; [25],(+2.0%)
same,Body weight,[1]; [26],145.0 g
same,percentage weight increment compared to Day 0,[1]; [26],(−10.1%)
same,Body weight,[1]; [27],139.5 g
same,percentage weight increment compared to Day 0,[1]; [27],(−13.5%)
same,Body weight,[1]; [28],125.9 g
same,percentage weight increment compared to Day 0,[1]; [28],(−9.8%)

# From US20160158376A1 (priority 2013, published 2016)
